# Sequence variants of PSTVd loop 6 after infection

Data from the supplement of Wu et al. 2024, doi:10.1371/journal.ppat.1012142.

Region: loop 6 of PSTVd (intermediate strain), upper and lower strand joined, each 5' to 3', the first 5 letters being the upper strand, closing pairs included. Wild type: UGACCGCGAG. Varied positions (N): UNNNCGNNNG.

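Three N. benthamiana plants were inoculated with the whole mutant pool. Progeny were sequenced from the inoculated region (day 5), the margin of the inoculated leaf (day 10) and systemic leaves (day 12).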

Values are reads per thousand in the sample; higher means more abundant, 0 means not found. Each site shows the three plants. "Pool" is the share in the plasmid pool used as inoculum, on the same scale. The inoculated region was read from the minus strand, the other sites from the plus strand. For reference, wild type rose from 20.7 per thousand in the pool to 195, 198, 203 (inoculated region), 629, 591, 734 (leaf margin) and 942, 870, 868 (systemic leaves). With 36,220-57,551 reads a sample, very low values are single reads. Sequences that differ at fixed positions probably stem from PCR or sequencing errors, and defective variants can be carried along by functional ones.

sequence,pool,inoculated region,leaf margin,systemic leaves
UCUUCGAUGG,0.314,0.122 0.108 0.129,0 0.252 0.0232,0 0 0
UCGGCGGCCG,0.366,0.0521 0.0719 0.0184,0 0 0,0 0 0
UAAUCGUACG,0.235,0.122 0.180 0,0.0552 0 0,0 0 0
UUCCCGUAAG,0.0784,0.104 0.0359 0.0922,0 0 0.0232,0 0 0
UAGUCGCCGG,0.0915,0.0869 0.0719 0.0922,0 0 0,0 0 0
UCGACGUCUG,0.458,0.139 0.0898 0.148,0 0 0,0 0 0.0205
UCGGCGGGAG,0.288,0.122 0.0539 0.0922,0 0 0,0 0 0
UGUGCGACCG,0.209,0.0521 0.0898 0.0738,0 0 0,0 0 0
UUGUCCUGUG,0.0131,0 0 0,0 0 0,0 0 0
UCGGCGGACG,0.261,0.0695 0.0359 0.0738,0 0 0.0232,0 0 0
UCGUCGUCUG,0.497,0.139 0.0359 0.0184,0 0 0.0232,0 0 0
UGGGCGAAAG,0.170,0.0695 0.0539 0.111,0 0 0,0 0 0
UAGGCGUCAG,0.261,0.0695 0.0539 0.221,0 0 0,0 0 0
UACGCGAACG,0.261,0.104 0.108 0.0553,0 0 0.0464,0 0 0
UUCCCGGCGG,0.157,0.0869 0.0898 0.0922,0.0276 0 0.0232,0 0 0
UUUGCGUGUG,0.144,0.104 0.108 0.0369,0 0 0,0 0 0
UGGCCGUGUG,0.353,0.174 0.0898 0.166,0.0276 0 0.0232,0 0 0
UAGACGCACG,0.170,0.104 0.108 0.0738,0 0 0.0232,0 0 0.0205
UCUGCGCUAG,0.105,0.156 0.108 0.129,0 0 0,0 0 0
UGUCCGAGGG,0.170,0.122 0.162 0.0553,0 0 0,0 0 0.0205
UCUGCGCAAG,0.183,0.191 0.126 0.111,0 0 0,0 0 0
UAGCCUGUUG,0.0131,0 0 0,0 0 0,0 0 0
UGGUCGCACG,0.340,0.139 0.144 0.0922,0 0 0,0 0 0
UCCUCGAACG,0.209,0.122 0.0539 0.0922,0 0 0,0 0 0
UUUACGACAG,0.157,0.0348 0.180 0.0369,0.0552 0 0,0 0 0
UUUCCGUAUG,0.327,0.174 0.0898 0.0922,0.331 0 0.0464,0 0 0
UUGUCGGACG,0.248,0.104 0.0180 0.0922,0 0 0,0 0 0
UAGCCGUUGG,0.248,0.156 0.108 0.0738,0 0.126 0.0696,0 0 0
UUAUCGUAGG,0.301,0.139 0.0719 0.129,0.0276 0 0.0232,0 0 0
UUAACGCCAG,0.196,0.591 0.593 0.461,0.0552 0.101 0,0 0 0
UGGACGGCCA,0.0131,0 0 0,0 0 0,0 0 0
UGAGCGGCGG,0.340,0.174 0.0719 0.0553,0 0 0.0232,0 0 0
UGCUCGACCG,0.144,0.104 0.126 0.0369,0 0 0.0232,0 0 0
UGUCCGUUGG,0.209,0.156 0.0898 0.0738,0 0 0.0464,0 0 0
UUCUCGGCAG,0.183,0.0695 0.0719 0.0738,0.0276 0 0,0 0 0
UCUUCGGCUG,0.222,0.122 0.0359 0.0922,0 0.0504 0.0232,0 0 0
UUCGCGGGUG,0.209,0.122 0.0898 0.0738,0.0276 0 0,0 0 0
UGGACGCGAG,0.222,0.330 0.198 0.424,0 0.404 0.0464,0.0180 0.0404 0.144
UCCUCGGGAG,0.157,0.156 0.0359 0.111,0 0 0,0 0 0
UCAACGCUGG,0.131,0.0869 0.0359 0.0922,0.0276 0 0,0 0 0
UUACCGUUCG,0.314,0.104 0.108 0.166,0.0552 0 0,0 0 0
UCUACGCUGG,0.118,0.139 0.0539 0.0922,0 0 0.0232,0 0 0
UAGACGGCCG,0.0915,0.0521 0.0359 0.0738,0 0 0.0232,0 0 0
UCGCCGUGAG,0.131,0.765 0.521 0.406,0.0552 0 0,0 0 0
UAGCCGUUAG,0.275,0.156 0.126 0.0553,0.110 0.0504 0,0 0 0
UGAGCGCAAG,0.0654,0.869 0.629 0.756,0 0.177 0.255,0 0 0
UAUGCGAGUG,0.209,0.0695 0.126 0.111,0.0276 0 0.0232,0 0 0
UGUCCGGUGG,0.209,0.226 0.0719 0.0738,0 0.0252 0,0 0 0
UUUGCGACGG,0.340,0.0869 0.0539 0.0553,0 0 0.0232,0 0 0
UAACCGCAGG,0.157,0.712 0.611 0.664,0.0552 0.0757 0.0696,0 0 0
UGGGCGCAAG,0.0784,0.0869 0.0898 0.129,0 0 0.0696,0 0 0
UGCGCGCCCG,0.248,0.104 0.144 0.0369,0 0 0.0232,0 0 0
UCACCGUAAG,0.0523,0.417 0.485 0.461,0.0552 0 0.139,0 0 0
UCUACGAGAG,0.275,0.191 0.0898 0.129,0.166 0 0,0 0 0.0205
UCGGCGACUG,0.366,0.0521 0.108 0.0922,0 0 0,0 0 0

A selection of 3 entries from above:

{"sequence": "UCGGCGGACG", "pool": "0.261", "inoculated region": "0.0695 0.0359 0.0738", "leaf margin": "0 0 0.0232", "systemic leaves": "0 0 0"}
{"sequence": "UGUGCGACCG", "pool": "0.209", "inoculated region": "0.0521 0.0898 0.0738", "leaf margin": "0 0 0", "systemic leaves": "0 0 0"}
{"sequence": "UCCUCGAACG", "pool": "0.209", "inoculated region": "0.122 0.0539 0.0922", "leaf margin": "0 0 0", "systemic leaves": "0 0 0"}